For the test, the system named is net baseline intestinal fluid transport. As to conditions: mouse, in vivo.

1 compound from PMC9770395 (PLOS Neglected Tropical Diseases, 2022) can be followed below.

`CC[C@H](C)C(=O)O[C@H]1C[C@@H](C)C=C2C=C[C@H](C)[C@H](CC[C@@H]3CC=CC(=O)O3)[C@H]21` [DHLV, α,β-dehydrolovastatin]: the “Effect on net baseline fluid transport (fluid absorption at 30 min)” value is listed as “unaffected”.
